Results from US5686428A, “Pharmaceutical composition” (priority 1994, dated 1997).

Assays:
HIV-1 (strain LAV-1) = assay: HIV-1 replication in infected human PBM cells (RT activity of disrupted virions); assay type: cell-based; details: HIV-1 infected cells
Description: Cells, virus strains, and cell culture assays. PBM cells from healthy HIV-1 and hepatitis B virus seronegative donors were isolated and propagated as described previously (35). HIV-1 (strain LAV-1) was obtained from the Centers for Disease Control, Atlanta, and propagated in PHA-stimulated human PBM cells as described previously (35). The details of the methods used for infection and assaying the anti-HIV-1 effect in infected human PBM cells have been reported (35).
RT activity assay with disrupted virions. Six ml supernatant from each culture was clarified from cells at 300× g for 10 minutes. […]
The RT assays were performed at 37° C. in 96-well microtiter plates using methods described previously (35, 38). The results were expressed as dpm/ml of the originally clarified supernatant.
(§1) Calculation of synergy. […] The interaction between two compounds was determined by calculating the combination index (C.I.) with assumptions, where appropriate, of either mutually exclusive or non-exclusive interactions. When uncertainty existed as to whether the drugs acted in similar or independent manners, the determination of C.I.-values were calculated under each assumption and compared. […]

HCMV strain Ad169 = assay: HCMV plaque reduction assay in HEL cells; assay type: cell-based, human cytomegalovirus; details: CMV infected cells
Procedure: HCMV strain Ad169 was a gift from Dr. Fred Rapp, Hersey, Pa. Human embryonic lung (HEL) cells, obtained from the American Type Culture Collection, Rockville, Md., were cultured in Dulbecco modified Eagle medium as decribed previously (39). Viable cells were conducted microscopically using a hemacytometer and the trypan blue exclusion method. Plaque reduction assays were performed in confluent monolayers of HEL cells in 6-well plates (Costar, Cambridge, Mass.) with 100 to 200 pfu of HCMV Ad169. After an adsorption period of 1 hour, unadsorbed virus was removed and the monolayers were overlaid with Dulbecco modified Eagle medium containing 0.75% SeaPlaque agarose (FMC BioProducts, Rockland, Me.), 2% heat inactivated fetal calf serum, and the appropriate concentration of drug. […] The monolayers were then fixed with 10% buffered Formalin (Fisher Scientific Co, Fair Lawn, N.J.), stained with crystal violet, and the number of plaques were counted.
as §1

| Structure (SMILES) | m ± SE (slope of median effect plot) (HIV-1 (strain LAV-1)) | m ± SE (slope of median effect plot) (HCMV strain Ad169) |
| --- | --- | --- |
| O=C(O)P(=O)(O)O [PFA, phosphonoformic acid] | 1.89 ± 0.17 | 1.88 ± 0.10 |
| Cc1cn([C@H]2C[C@H](N=[N+]=[N-])[C@@H](CO)O2)c(=O)[nH]c1=O [AZT, 3'-azido-3'-deoxythymidine] | 3.02 ± 0.27 | 5.95 |
